Reference: patent US20080044348A1 (priority 2006, published 2008)

Tested on: HIF1α signaling
Assay: HIF1α dual fluorescence reporter assay in C6#4 tumor cell spheroids
Format: cell-based

With `N[C@@H](Cc1ccc([N+]([O-])(CCCl)CCCl)cc1)C(=O)O` the “effect on CoCl2-induced HIF1α signaling” value (C6#4 reporter cells, 200 μm CoCl2) was “suppressed CoCl2-induced HIF1α signaling”, the “level of HIF1α expression and activity” value (C6#4 spheroids) was “inhibited the level of HIF1α expression and activity” and the “hypoxic response of spheroids (GFP expression)” value (spheroids) was “inhibited”.
